Patent publication US20040121316A1 (priority 2002, published 2004)
Read-outs that look alike come from different tables or passages of the source.

Experiments:
[1] = biological target: recombinant HIV-1 protease (Human immunodeficiency virus type 1 group M subtype B, UniProt P04585); assay: HIV-1 Protease Enzyme Assay (Ki); type: biochemical
[2] = system: wild-type HIV-1 strain IIIB; assay: Anti-HIV-1 Cell Culture Assay (EC50); type: cell-based; parameters: EC50 (nM): scale not given here
[3] = biological target: WT HIV protease (Human immunodeficiency virus type 1 group M subtype B, UniProt P04585); assay: Enzymatic assay, WT IC50 (Table 11, CCLPPI activity); type: biochemical, HIV-1
[4] = biological target: 84V90M HIV protease (Human immunodeficiency virus type 1 group M subtype B, UniProt P04585, I572V/L578M); assay: Enzymatic assay, 84V90M IC50 (Table 11); type: biochemical, HIV-1
[5] = system: WT HIV-1; assay: Cell-based assay (MT-4) EC50, WT; conditions: read-out: Cell-based assay (MT-4) EC50/nM WT, MT-4, WT
[6] = system: HIV-1 84V90M; assay: Cell-based assay (MT-4) EC50, 84V90M; conditions: read-out: Cell-based assay (MT-4) EC50/nM 84V90M, MT-4, 84V90M
[7] = system: HIV-1 48V54V82A; assay: Cell-based assay (MT-4) EC50, 48V54V82A; conditions: read-out: Cell-based assay (MT-4) EC50/nM 48V54V82A, MT-4, 48V54V82A
[8] = system: HIV-1 46I50V; assay: Cell-based assay (MT-4) EC50, 46I50V; conditions: read-out: Cell-based assay (MT-4) EC50/nM 46I50V, MT-4, 46I50V
[9] = system: HIV-1 30N82I88D; conditions: read-out: Cell-based assay (MT-4) EC50/nM 30N82I88D, MT-4, 30N82I88D
[10] = system: mutant HIV-1 I50V #1 (M46I/I47V/I50V); assay: Resistance Evaluation, I50V #1 fold change; type: cell-based
[11] = system: mutant HIV-1 I84V/L90M; assay: Resistance Evaluation, I84V/L90M fold change; type: cell-based
[12] = system: HIV-1 48V54V82S; assay: Cell-based assay (MT-4) EC50, 48V54V82S; conditions: read-out: Cell-based assay (MT-4) EC50/nM 48V54V82S, MT-4, 48V54V82S
[13] = system: HIV-1 48V82A90M; assay: Cell-based assay (MT-4) EC50, 48V82A90M; conditions: read-out: Cell-based assay (MT-4) EC50/nM 48V82A90M, MT-4, 48V82A90M

With COc1ccc(S(=O)(=O)N(C[C@@H](O)[C@H](Cc2ccccc2)NC(=O)O[C@H]2CO[C@H]3OCC[C@H]32)CC(C)(C)CCOCP(=O)(OCc2ccccc2)OCc2ccccc2)cc1 the “Ki (pM)” value [1] was “+ +” and the “EC50 (nM)” value [2] was “+ + +”.

In the case of CC(C)CN(C[C@@H](O)[C@H](Cc1ccc(OCP(=O)(O)O[C@@H](C)C(=O)O)cc1)NC(=O)O[C@H]1CO[C@H]2OCC[C@H]21)S(=O)(=O)c1ccccc1, the “Ki (pM)” value [1] is reported as “+ +”.

Nc1n[nH]c2ccc(CN3C(=O)N(CCCO)[C@H](Cc4ccccc4)[C@H](O)[C@@H](O)[C@H]3Cc3ccccc3)cc12 gave a Ki ([1]; Enzymatic assay) of 0.65 nM, an IC50 ([3]; read-out: WT IC50/nM) of 6.1 nM and an IC50 ([4]; read-out: 84V90M IC50/nM) of 77 nM. The EC50 [5] was 356 nM, the EC50 [6] was 2790 nM and the EC50 [7] was 294 nM. It also gave an EC50 [8] of 683 nM and an EC50 [9] of 669 nM.

For CC(C)CN(C[C@@H](O)[C@H](Cc1ccc(OCP(=O)(O)O)cc1)NC(=O)O[C@H]1CO[C@H]2OCC[C@H]21)S(=O)(=O)c1ccc[n+]([O-])c1, the “Ki (pM)” value [1] was “+ +”.

In the case of CC(C)CN(C[C@@H](O)[C@H](Cc1ccc(OCP(=O)(O)O[C@@H](C)C(=O)O)cc1)NC(=O)O[C@H]1CO[C@H]2OCC[C@H]21)S(=O)(=O)c1ccc(CO)cc1, the “Ki (pM)” value [1] is reported as “+ +”.

With CCCCOC(=O)[C@H](C)NP(=O)(COc1ccc(S(=O)(=O)N(CC(C)C)C[C@@H](O)[C@H](Cc2ccccc2)NC(=O)O[C@H]2CO[C@H]3OCC[C@H]32)cc1)N[C@@H](C)C(=O)OCCCC the Ki [1] was 0.1 to 1 nM, the “EC50 (nM)” value [2] was “+ +” and the “I50V (#1) fold change” value ([10]; mutant I50V (#1) vs wild type) was “+ (>3 to ≦10)”. The I84V/L90M fold change ([11]; mutant I84V/L90M vs wild type) was “+ (>3 to ≦10)”.

CCOP(=O)(Cc1ccc(C[C@H](NC(=O)O[C@H]2CO[C@H]3OCC[C@H]32)[C@H](O)CN(CC(C)C)S(=O)(=O)c2ccc(OC)cc2)cc1)OCC was tested, and the “I50V (#1) fold change” value ([10]; EC50 of mutant M46I/I47V/I50V relative to wild type, class symbols) was “+ (>3 to ≦10)” and the I84V/L90M fold change ([11]; EC50 of mutant I84V/L90M relative to wild type, class symbols) was “+ (>3 to ≦10)”.

In the case of CC(C)CN(C[C@@H](O)[C@H](Cc1ccc(N)cc1)NC(=O)O[C@H]1CO[C@H]2OCC[C@H]21)S(=O)(=O)c1ccc(OCP(=O)(OCc2ccccc2)OCc2ccccc2)cc1, the Ki [1] is reported as 0.1 to 1 nM, the EC50 [2] is reported as 500 to 5000 nM and the I84V/L90M fold change ([11]; mutant I84V/L90M vs wild type) is reported as “+ (>3 to ≦10)”.

In the case of Nc1n[nH]c2ccc(CN3C(=O)N(Cc4cccc(C(=O)NCCCP(=O)(O)O)c4)[C@H](Cc4ccccc4)[C@H](O)[C@@H](O)[C@H]3Cc3ccccc3)cc12, the EC50 [6] is reported as over 6000 nM.

In the case of CC(C)CN(C[C@@H](O)[C@H](Cc1ccc(OCP(=O)(O)O[C@@H](C)C(=O)O)cc1)NC(=O)O[C@H]1CO[C@H]2OCC[C@H]21)S(=O)(=O)c1ccc(F)cc1, the “Ki (pM)” value [1] is reported as “+ +”.

For CC(C)CN(C[C@@H](O)[C@H](Cc1ccc(OCP(=O)(O)O[C@@H](C)C(=O)O)cc1)NC(=O)O[C@H]1CO[C@H]2OCC[C@H]21)S(=O)(=O)c1ccc[n+]([O-])c1, the Ki [1] was 0.1 to 1 nM.

With Cc1c(O)cccc1C(=O)N[C@@H](Cc1ccc(OCP(=O)(OCc2ccccc2)OCc2ccccc2)cc1)[C@H](O)CN(CC(C)C)S(=O)(=O)c1ccc(N)cc1 the “Ki (pM)” value [1] was “+ +”, the “EC50 (nM)” value [2] was “+ +” and the “I50V (#1) fold change” value ([10]; mutant I50V (#1) vs wild type) was “+ (>3 to ≦10)”. The I84V/L90M fold change ([11]; mutant I84V/L90M vs wild type) was “− (≦3)”.

With CC(C)CN(C[C@@H](O)[C@H](Cc1ccc(OCP(=O)(O)O[C@@H](C)C(=O)O)cc1)NC(=O)O[C@H]1CO[C@H]2OCC[C@H]21)S(=O)(=O)c1cccnc1 the “Ki (pM)” value [1] was “+ +”.

With CCNc1cccc(CN2C(=O)N(Cc3cccc(N)c3)C(Cc3ccc(O)cc3)C(O)C(O)C2Cc2ccc(OCP(=O)(OCC)OCC)cc2)c1 (centres unmarked) the IC50 ([3]; read-out: WT IC50/nM) was 8.7 nM, the IC50 ([4]; read-out: 84V90M IC50/nM) was 67 nM and the EC50 [5] was 286 nM. For the same molecule, the EC50 [6] was 1900 nM, the EC50 [7] was 789 nM and the EC50 [12] was 1780 nM. It also gave an EC50 [13] of 684 nM, an EC50 [8] of 239 nM and an EC50 [9] of 562 nM.

With CCOP(=O)(COCC(C)(C)CN(C[C@@H](O)[C@H](Cc1ccccc1)NC(=O)O[C@H]1CO[C@H]2OCC[C@H]21)S(=O)(=O)c1ccc(OC)cc1)OCC the “Ki (pM)” value [1] was “+ + +” and the “EC50 (nM)” value [2] was “+ + +”.

CCOC(=O)[C@H](C)NP(=O)(COc1ccc(C[C@H](NC(=O)O[C@H]2CO[C@H]3OCC[C@H]32)[C@H](O)CN(CC(C)C)S(=O)(=O)c2ccc(OC)cc2)cc1)N[C@@H](C)C(=O)OCC was tested, and the EC50 ([2]; read-out: Anti-HIV-1 Cell Culture Activity EC50, MT2 cells, HIV-1 IIIB, 5 days, XTT) was 105 nM.

COc1ccc(S(=O)(=O)N(CC(C)C)C[C@@H](O)[C@H](Cc2cc[n+]([O-])cc2)NC(=O)O[C@H]2CO[C@H]3OCC[C@H]32)cc1 was tested, and the “Ki (pM)” value [1] was “+ +” and the EC50 [2] was over 5000 nM.

Molecule CCOP(=O)(COc1ccc(C[C@@H]2[C@H](O)[C@@H](O)[C@@H](Cc3ccccc3)N(Cc3ccc4[nH]ncc4c3)C(=O)N2Cc2ccc3[nH]ncc3c2)cc1)OCC has a Ki ([1]; Enzymatic assay, tested form: TFA) of 0.02 nM, an IC50 ([3]; read-out: WT IC50/nM, tested form: TFA) of 1.4 nM and an IC50 ([4]; read-out: 84V90M IC50/nM, tested form: TFA) of 6.2 nM. For the same molecule, the EC50 ([5]; tested form: TFA) was 57 nM, the EC50 ([6]; tested form: TFA) was 40 nM and the EC50 ([7]; tested form: TFA) was 28 nM. The EC50 ([12]; tested form: TFA) was 26 nM, the EC50 ([13]; tested form: TFA) was 32 nM and the EC50 ([8]; tested form: TFA) was 27 nM. It also gave an EC50 ([9]; tested form: TFA) of 68 nM.

With CC(C)CN(C[C@@H](O)[C@H](Cc1ccc(OCP(=O)(OCc2ccccc2)OCc2ccccc2)cc1)NC(=O)O[C@H]1CO[C@H]2OCC[C@H]21)S(=O)(=O)c1cccnc1 the “Ki (pM)” value [1] was “+ +” and the “EC50 (nM)” value [2] was “+ + +”.
